Measurements as given in patent US20200010516.

Key:
Test in all cases: cell-based or functional assay
[1] = target: integrin αIIbβ3 on CHO-αIIbβ3 cells, not stated, P08514 32-1039; P05106 27-788
[2] = target: integrin αIIbβ3 on platelets of healthy donors, not stated, P08514 32-1039; P05106 27-788
[3] = target: integrin αvβ3 on CHO-αvβ3 cells, not stated, P06756 31-1048; P05106 27-788
[4] = target: integrin αvβ5 on HT-29 cells, human, P06756 31-1048; P18084 24-799
[5] = target: integrin αvβ6 on HT-29 cells, human, P06756 31-1048; P18564 22-788
[6] = target: integrin α5β1 on K562 cells, human, P08648 42-1049; P05556 21-798

| Substance | IC50, adhesion of CHO-αIIbβ3 cells to fibrinogen [1] [µM] | IC50, Platelet Aggregation [2] [µM] | IC50, adhesion of CHO-αvβ3 cells to fibrinogen [3] [µM] | IC50, adhesion of HT-29 cells to vitronectin [4] [µM] | IC50, adhesion of HT-29 cells to fibronectin [5] [µM] | IC50, adhesion of K562 cells to fibronectin [6] [µM] |
| --- | --- | --- | --- | --- | --- | --- |
| ^39SRAGK-^46RIARGDDP-^66RYH | 5.12 | 0.753 | 0.0453 | 6.89 | 15 |  |
| ^39SRAGK-^46RIARLDDL-^66RYH | 23.2 | 10.4 | 0.042 | 0.941 | 20.7 | 14.5 |
